Laboratory results published in PubChem BioAssay AID1850 (Southern Research Specialized Biocontainment Screening …, 2009).
The entries are a selection whose mix differs from that of the whole data set. Entries with a potency or affinity are not part of this list. The source made the active and inactive calls. How the calls were made is not given here.

assay: Inhibition of PhoP regulon, Salmonella typhi GFP reporter cells, confirmation, 4 h (AID 1850); details: Salmonella Typhi PhoP-promoter GFP reporter, fluorescence, at 50 µM, hits give high values;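 further: 0% = induced wells with vehicle and 100% = uninduced wells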

Row | Structure (SMILES) | inhibition
1 | COc1cccc(C(=O)N(c2cc(C)cc(C)c2)C2CCN(C(=O)OC(C)(C)C)CC2)c1 | inactive: 7.01%
2 | COc1cc(OC)cc(C(=O)NCC2(N3CCOCC3)CCCCC2)c1 | inactive: 0.12%
3 | CCC(CO)(C(=O)OC1CN2CCC1CC2)c1ccccc1 (centres undefined) | inactive: 7%
4 | CN1CCC(Nc2ccc(Cl)cc2)CC1 | inactive: -2.38%
5 | CCCOc1ccc(C)cc1CN(CCCl)CCCl | inactive: 5.19%
6 | CN1CCC(Nc2ccc(F)c(Cl)c2)CC1 | inactive: -3.94%
7 | CCOc1ncccc1C(=O)NCC1(N2CCOCC2)CCCCC1 | inactive: 6.81%
8 | O=C(O)C1(Nc2ccccc2)CCN(Cc2ccccc2)CC1 | inactive: -0.89%
9 | CC(C)(C)OC(=O)N1CCC(Nc2ccccc2)CC1 | inactive: 3.5%
10 | CCCOc1ccc(C(=O)NCC2(N(C)C)CCCCC2)cc1 | inactive: 0.13%
11 | CCN1CCC(Nc2cccc(F)c2)CC1 | inactive: -3.98%
12 | CN(C)c1ccc(C(=O)NCC2(N3CCCCC3)CCCCC2)cc1 | inactive: 3.82%
13 | COc1cc(OC)cc(C(=O)NCC2(N3CCCCC3)CCCCC2)c1 | inactive: -5.54%
14 | Fc1ccccc1NC1CCN(Cc2ccccc2)CC1 | inactive: 1.56%
15 | Cc1ccc(C(=O)NCC2(N3CCCCC3)CCCCC2)o1 | inactive: 12.5%
16 | CN(C)C1(CNC(=O)c2cccc(C#N)c2)CCCCC1 | inactive: 11.2%
17 | CCCN1CCC(Nc2cc(OC)cc(OC)c2)CC1 | inactive: -1.14%
18 | c1ccc(CN2CCC(Nc3ccccc3)CC2)cc1 | inactive: -13.9%
19 | N#Cc1ccc(C(=O)NCC2(N3CCCCC3)CCCCC2)cc1 | inactive: -6.12%
20 | CC(C)(C)OC(=O)N1CCC(N(C(=O)c2ccccc2)c2ccc(Cl)cc2)CC1 | inactive: -0.77%

Row | Structure (SMILES) | inhibition
21 | CCOC(=O)N1CCC(Nc2ccc(C)cc2)CC1 | inactive: -5.1%
22 | N/C(=N\O)c1c(N)no[n+]1[O-] | inactive: -12.3%
23 | CCc1cc(C(=O)NCC2(N3CCCCC3)CCCCC2)sc1C | inactive: -0.39%
24 | O=C(OC1CN2CCC1CC2)C1c2ccccc2C=Cc2ccccc21 (centres undefined) | inactive: -5.21%
25 | COc1ccc(C(=O)NCC2(N3CCOCC3)CCCCC2)cc1OC | inactive: 10.9%
26 | CN1CCC(Nc2cccc(F)c2)CC1 | inactive: 1.34%
27 | CCCOc1ccc(C(=O)NCC2(N(C)C)CCCCC2)cc1OC | inactive: 1.99%
28 | CC(C)c1ccc(NC2CCN(C(=O)OC(C)(C)C)CC2)cc1 | inactive: -2.54%
29 | CN(C)c1cccc(C(=O)NCC2(N3CCCCC3)CCCCC2)c1 | inactive: 8.54%
30 | COc1ccc(CN(CCCl)CCCl)cc1Cl | inactive: 5.77%
31 | COc1cc(OC)c(C(=O)NCC2(N(C)C)CCCCC2)cc1OC | inactive: -0.74%
32 | O=C(NCC1(N2CCCCC2)CCCCC1)c1cccc(C(F)(F)F)c1 | inactive: 10.7%
33 | O=C(NCC1(N2CCOCC2)CCCCC1)c1cc(=O)[nH]c2ccccc12 | inactive: -8.92%
34 | COc1cc(C(=O)NCC2(N3CCCCC3)CCCCC2)ccc1OC(F)F | inactive: 9.88%
35 | COc1ccc(NC2CCN(C(=O)OC(C)(C)C)CC2)cc1 | inactive: -8.69%
36 | CN1CCN(CCOC(=O)C(O)(c2ccccc2)c2ccccc2)CC1 | inactive: 0.58%
37 | O=C(NCC1(N2CCCCC2)CCCCC1)c1ccc(OC(F)F)cc1 | inactive: -0.26%
38 | N#CC1(Nc2ccccc2)CCN(CCc2ccccc2)CC1 | inactive: -0.91%
39 | CCN1CCC(Nc2ccc(Cl)cc2)CC1 | inactive: 3.89%
40 | O=C(NCC1(N2CCCCC2)CCCCC1)c1cccc([N+](=O)[O-])c1 | inactive: -0.79%

Row | Structure (SMILES) | inhibition
41 | Cc1ccc(OCC(C)C)c(CN(CCCl)CCCl)c1 | inactive: 11.5%
42 | CCOC(=O)N1CCC(Nc2cccc(C)c2)CC1 | inactive: 5.24%
43 | COc1cc(C(=O)NCC2(N(C)C)CCCCC2)ccc1OC(F)F | inactive: 6.17%
44 | CCOc1ccc(C)cc1CN(CCCl)CCCl | inactive: 4.34%
45 | CCOC(=O)N1CCC(Nc2ccc(F)cc2)CC1 | inactive: -1.47%
46 | COc1ccc(NC2CCN(CCc3ccccc3)CC2)c(OC)c1 | inactive: 2.38%
47 | O=C(NCC1(N2CCCCC2)CCCCC1)c1ccc(F)cc1 | inactive: 9.47%
48 | Cc1cc(C)cc(N(C(=O)c2ccccc2)C2CCN(C(=O)OC(C)(C)C)CC2)c1 | inactive: 0.11%
49 | O=C(NCC1(N2CCCCC2)CCCCC1)c1ccc(Cl)nc1 | inactive: 6.16%
50 | O=C(NCC1(N2CCOCC2)CCCCC1)c1cc2ccccc2o1 | inactive: -5.75%
51 | N#CC1(Nc2ccccc2)CCN(Cc2ccccc2)CC1 | inactive: -20.4%
52 | O=C(OC1CN2CCC1CC2)C1c2ccccc2Oc2ccccc21 (centres undefined) | inactive: -2.01%
53 | CCOC(=O)N1CCC(Nc2ccc(OC)cc2)CC1 | inactive: -9.62%
54 | COc1ccc(C(=O)NCC2(N3CCCCC3)CCCCC2)c(OC)c1OC | inactive: 3.33%
55 | CC(C)(C)OC(=O)N1CCC(N(C(=O)c2ccccc2)c2ccc(F)cc2)CC1 | inactive: -0.29%
56 | COc1ccc(C(=O)NCC2(N3CCCCC3)CCCCC2)cc1 | inactive: 11.2%
57 | O=C(NCC1(N2CCCCC2)CCCCC1)c1cccs1 | inactive: 2.05%
58 | O=C(NCC1(N2CCCCC2)CCCCC1)c1ccc(=O)[nH]c1 | inactive: -8.45%
59 | CSc1ccccc1C(=O)NCC1(N2CCCCC2)CCCCC1 | inactive: -2.26%
